# Sequence variants of PSTVd stem 3 after infection

Region: stem 3 of PSTVd (intermediate strain), upper and lower strand joined, each 5' to 3', the first 8 letters being the upper strand. Wild type: GUGGUUCCGGAACCGC. Varied positions (N): GUGGUUCCGNANNCNN.

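A pool of all variants was put on leaves of three Nicotiana benthamiana plants. Samples came from the inoculated region at 5 days, the leaf margin at 10 and upper systemic leaves at 12.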

Values are reads per thousand in the sample; higher means more abundant, 0 means not found. Each site shows the three plants. "Pool" is the share in the plasmid pool used as inoculum, on the same scale. The inoculated region was read from the minus strand, the other sites from the plus strand. IR is the inoculated region, LM the leaf margin, Sys the systemic leaves. The authors trace changes outside the varied positions to PCR and sequencing errors or to mutation in the plant; presence does not show that a variant is infectious alone. Samples held 27,691 to 54,225 reads, so the smallest values rest on one or two reads. Wild type was 17.3 per thousand in the pool and the most common sequence in every sample (inoculated region 330, 345, 235; leaf margin 794, 766, 816; systemic leaves 830, 792, 869).

GUGGUUCCGUACACUA (pool 0.893) read IR 0.480 / 0.367 / 0.108; LM 0 / 0 / 0; Sys 0 / 0 / 0. GUGGUUCCGAACACGG (pool 0.846) gave IR 0.426 / 0.323 / 0.432; LM 0 / 0 / 0.0722; Sys 0 / 0 / 0. GUGGUUCCGCAGUCCC (pool 0.985) gave IR 1.04 / 0.970 / 1.05; LM 0 / 1.24 / 0.469; Sys 0 / 0 / 0. GUGGUUCCGGAAGCUA (pool 0.785) gave IR 0.160 / 0.367 / 0.297; LM 0.0283 / 0 / 0.0361; Sys 0 / 0 / 0. For GUGGUUCCGGAUGCUG (pool 0.939) the result was IR 0.373 / 0.345 / 0.351; LM 0 / 0.0318 / 0; Sys 0.168 / 0 / 0. With GUGGUUCCGGACUCAU (pool 0.893) the assay gave IR 0.773 / 0.819 / 0.865; LM 0 / 1.18 / 0.289; Sys 0 / 0 / 0. For GUGGUUCCGAAAUCAU (pool 1.09) the result was IR 0.906 / 0.712 / 0.622; LM 1.93 / 1.05 / 0.325; Sys 1.21 / 1.31 / 1.09. With GUGGGUCCGGAUCCGG (pool 0.0154) the assay gave IR 0 / 0 / 0; LM 0 / 0 / 0; Sys 0 / 0 / 0.

With GUGGUUCCGGAUGCCG (pool 0.769) the assay gave IR 0.293 / 0.367 / 0.216; LM 0.0283 / 0 / 0; Sys 0 / 0 / 0. GUGGGUCCGGAACCGG (pool 0.0154) gave IR 0 / 0 / 0; LM 0 / 0 / 0; Sys 0 / 0 / 0.0243. GUGGUUCCGAAUACGG (pool 0.877) gave IR 0.560 / 0.712 / 1.00; LM 0.340 / 0.0318 / 0.433; Sys 0 / 0 / 0. With GUGGUUCCGGAGUCAU (pool 0.785) the assay gave IR 0.880 / 0.604 / 0.838; LM 2.07 / 1.27 / 0.542; Sys 1.21 / 1.14 / 0.608. With GUGGUUCCGAAUUCAC (pool 1.22) the assay gave IR 1.04 / 0.690 / 0.594; LM 1.47 / 1.05 / 0.433; Sys 1.08 / 1.25 / 0.705. For GUGGUUCCGCACCCCC (pool 0.862) the result was IR 0.400 / 0.280 / 0.378; LM 0.0283 / 0 / 0.0361; Sys 0 / 0 / 0. GUGGUUCCGGACCCCU (pool 1.08) read IR 0.426 / 0.237 / 0.108; LM 0 / 0 / 0; Sys 0 / 0 / 0. For GUGGUUCCGGAACAGG (pool 0.0154) the result was IR 0 / 0 / 0; LM 0 / 0 / 0; Sys 0 / 0.0553 / 0.

GUGGGUCCGUAUUCCA (pool 0.0154) read IR 0 / 0 / 0; LM 0 / 0 / 0; Sys 0 / 0 / 0. With GUGGUUCCGCAGCCCG (pool 0.785) the assay gave IR 0.347 / 0.367 / 0.270; LM 0.0283 / 0 / 0.0361; Sys 0 / 0 / 0. GUGGUUCCGUACGCUG (pool 0.970) read IR 0.453 / 0.323 / 0.324; LM 0 / 0 / 0; Sys 0 / 0 / 0. With GUCGUUCCGAACGCCC (pool 0.0154) the assay gave IR 0 / 0 / 0; LM 0 / 0 / 0; Sys 0 / 0 / 0. For GUGGUUCCGAAAACCC (pool 1.06) the result was IR 0.586 / 0.496 / 0.622; LM 0 / 0 / 0; Sys 0.0932 / 0.0184 / 0. For GUGGUUCCGGAAUCAG (pool 0.908) the result was IR 0.826 / 0.668 / 0.838; LM 0.0283 / 0 / 0.0361; Sys 0 / 0 / 0. GUGGUUCCGGAGACGG (pool 0.739) gave IR 0.293 / 0.539 / 0.108; LM 0 / 0 / 0; Sys 0 / 0 / 0. With GUGGUUCCGUAUACAA (pool 1.02) the assay gave IR 0.506 / 0.302 / 0.162; LM 0 / 0.0318 / 0; Sys 0 / 0 / 0.

With GUGGUUCCGUACACGA (pool 0.754) the assay gave IR 0.240 / 0.431 / 0.270; LM 0 / 0 / 0; Sys 0 / 0 / 0. GUGGUUCCGGAUCCAC (pool 1.09) read IR 0.426 / 0.410 / 0.297; LM 0 / 0 / 0; Sys 0 / 0 / 0. GUGGGUCCGGAACCUU (pool 0.0154) read IR 0 / 0 / 0; LM 0 / 0 / 0; Sys 0 / 0 / 0. UUGGUUCCGUACGCUG (pool 0.0154) gave IR 0 / 0 / 0; LM 0 / 0 / 0; Sys 0 / 0 / 0. With GUGGUUCCGGAACCCU (pool 0.816) the assay gave IR 0.347 / 0.280 / 0.0540; LM 0 / 0.0318 / 0; Sys 0 / 0 / 0. With GUGGUUCCGAACCCGU (pool 0.708) the assay gave IR 0.693 / 0.776 / 0.919; LM 0 / 0 / 0.361; Sys 0 / 0 / 0. For GUGGGUCCGAAUGGUA (pool 0.0154) the result was IR 0 / 0 / 0; LM 0 / 0 / 0; Sys 0 / 0 / 0. GUGGUUCCGUAAUCCC (pool 0.739) read IR 0.400 / 0.518 / 0.351; LM 0 / 0.0318 / 0; Sys 0.0373 / 0 / 0.

With GUGGUUCCGAACACCC (pool 1.06) the assay gave IR 0.320 / 0.345 / 0.189; LM 0 / 0.0318 / 0.0361; Sys 0 / 0 / 0. For GUGGUUCCGCACGCAG (pool 0.708) the result was IR 0.347 / 0.302 / 0.243; LM 0 / 0 / 0; Sys 0 / 0 / 0. For GUGGUUCCGUAUCCGG (pool 0.831) the result was IR 0.400 / 0.259 / 0.189; LM 0 / 0 / 0.0361; Sys 0 / 0 / 0. GUGGUUCCGGAAUCGC (pool 1.11) read IR 0.773 / 0.518 / 0.567; LM 0.227 / 0.414 / 0.253; Sys 0.596 / 0.203 / 0.195. With GUGGUUCCGAAUACCA (pool 0.769) the assay gave IR 0.267 / 0.410 / 0.216; LM 0 / 0.0318 / 0.0361; Sys 0 / 0 / 0. With GUGGUUCCGAAUUCCG (pool 0.662) the assay gave IR 0.533 / 0.647 / 1.19; LM 0 / 0 / 0.542; Sys 0 / 0 / 0.

Source: Wu et al. 2024 (doi:10.1371/journal.ppat.1012142), supplementary data.